Results of unrelated studies side by side (data: NIAID ChemDB).

All rows: tests in culture; organism: HIV-2; method: MTT; measure: EC50

Neighbouring rows are from separate reports. ECn: concentration that inhibits the pathogen or its effect by n%. Blank or dashed fields: not listed here.

smiles,strain or isolate,cells,result
O=S1(=O)N=C(Nc2ccc(Cl)cc2)C=C(Cc2cccc3ccccc23)N1,ROD,MT-4,>147 µM
Cc1cc(C)cc(C(=O)c2cccnc2Nc2ccc(C#N)cc2)c1,ROD,MT-4,>128 µM
CC(=O)c1ccc(CN2CCC(N=C3C=C(Cc4cccc5ccccc45)NS(=O)(=O)N3)CC2)cc1,ROD,MT-4,>106 µM
Cc1cc(C#N)cc(C)c1Oc1nc(Nc2ccc(C#N)cc2)ncc1SCC(=O)N1CCSCC1,ROD,MT-4,>242 µM
COc1ccc(CN2CCC(N=C3C=C(Cc4ccc(Cl)cc4Cl)NS(=O)(=O)N3)CC2)cc1,ROD,MT-4,>109 µM
COc1ccc(CCNc2nc(NC(=S)Nc3ccccc3Cl)nc(Oc3cc(=O)oc4ccccc34)n2)cc1OC,ROD,MT-4,>13.75 µg/mL
CCc1c(Cc2cccc3ccccc23)nc(N(C)C)[nH]c1=O,ROD,MT-4,>20.98 µM
CC(=O)c1ccc(CN2CCC(N=C3C=C(Cc4ccc(Cl)cc4Cl)NS(=O)(=O)N3)CC2)cc1,ROD,MT-4,>99.45 µM
CCCCN(CCCC)c1nc(Cc2cccc3ccccc23)c(C)c(=O)[nH]1,ROD,MT-4,≥120 µM
Cc1cn([C@H]2C=C[C@@H](COP(=O)(O)N[C@@H](CC(=O)O)C(=O)O)O2)c(=O)[nH]c1=O,ROD,CEM,6.55 µM
CCN(C)C(=O)Oc1nsnc1-c1c(Cl)cccc1Cl,EHO,MT-4,>29 µM
Cc1cc(C)cc(C(=O)c2cccnc2Nc2cccnc2)c1,ROD,MT-4,>41.63 µM
CC(C)(C)NC(=O)[C@@H]1C[C@@H]2CCCC[C@@H]2CN1C[C@@H](O)[C@H](Cc1ccccc1)NC(=O)[C@H](CC(N)=O)NC(=O)c1ccc2ccccc2n1,ROD,MT-2,0.003 µM
Cc1cc(C)c(Nc2nc(NC3CCN(Cc4ccccc4C)CC3)nc3nc[nH]c23)c(C)c1,ROD,MT-4,>7.81 µM
COc1ccc(S(=O)(=O)N(CC(C)C)C[C@@H](O)[C@H](Cc2cc(F)cc(F)c2)NC(=O)O[C@H]2CO[C@H]3OCC[C@H]32)cc1,ROD,MT-2,0.0002 µM
O=C(CSc1nc(CCC2CCCCC2)cc(=O)[nH]1)c1ccc(F)cc1,ROD,MT-4,80 µM
Cc1c(Cc2cccc3ccccc23)nc(SCc2cn(Cc3ccccc3C#N)nn2)[nH]c1=O,ROD,-,>123 µM
Cc1c(Cc2cccc3ccccc23)nc(NC(C)C)[nH]c1=O,ROD,MT-4,>54.33 µM
CC(C)(C)OC(=O)N1CCC(NC(=O)c2cc(O)c(O)c(O)c2)CC1,ROD,MT-4,>42.9 µM
Cc1cc(C)cc(C(=O)c2cccnc2Oc2ccc(N)cc2)c1,ROD,MT-4,>123 µM
COC(=O)CS(=O)(=O)c1cnc(Nc2ccc(C#N)cc2)nc1Oc1c(C)cc(C#N)cc1C,ROD,MT-4,>262 µM
CCN(CC)c1nc(Cc2cccc3ccccc23)c(C)c(=O)[nH]1,ROD,MT-4,>388.9 µM
Cc1cc(C)c(Nc2nc(NC3CCN(Cc4cccc(C#N)c4)CC3)nc3nc[nH]c23)c(C)c1,ROD,MT-4,>25.4 µM
COc1ccc(CCNc2nc(NC(=O)Nc3cccc(C)c3)nc(Oc3cc(=O)oc4ccccc34)n2)cc1OC,ROD,MT-4,>22.45 µg/mL
Cc1cc(C#N)cc(C)c1Oc1nc(Nc2ccc(C#N)cc2)nc(N)c1Br,ROD,MT-4,>4.41 µM
CCc1c(C(C)C2CCCCC2)nc(SCC(=O)c2ccccc2)[nH]c1=O,ROD,MT-4,194 µM
COC(=O)c1ccc(C(=O)N2CCC(NC(=O)c3cc(O)c(O)c(O)c3)CC2)cc1,ROD,MT-4,>26.9 µM
Cn1c(=O)cc(Oc2nc(Nc3ccc(C#N)cc3)nc(Nc3nc4ccc(Cl)cc4s3)n2)c2ccccc21,ROD,-,>2.19 µg/mL
COC(=O)c1ccc(CN2CCC(Nc3nc(Nc4c(C)cc(C)cc4C)c4[nH]cnc4n3)CC2)cc1,ROD,MT-4,>24.06 µM
CC(c1cc(=O)[nH]c(SCC(=O)c2ccc(F)cc2)n1)C1CCCCC1,ROD,MT-4,165 µM
COc1ccc(CN=C2C=C(Cc3ccc4ccccc4c3)NS(=O)(=O)N2)cc1,ROD,MT-4,>148 µM
Cc1cn([C@H]2C=C[C@@H](CO)O2)c(=O)[nH]c1=O,ROD,MT-4,0.19 µM
Cn1c(=O)cc(Oc2nc(Nc3ccc(C#N)cc3)nc(Nc3nc4ccc(F)cc4s3)n2)c2ccccc21,ROD,-,>2.26 µg/mL
COc1ccc(C(=O)CSc2nc(C(C)C3CCCCC3)c(C)c(=O)[nH]2)cc1,ROD,MT-4,28 µM
CC(C)CN(C[C@@H](O)[C@H](Cc1cc(F)cc(F)c1)NC(=O)O[C@H]1CCO[C@H]2OCC[C@H]21)S(=O)(=O)c1ccc2nc(NC(C)C)sc2c1,ROD,MT-2,0.00047 µM
CCc1c(C(C)C2CCCCC2)nc(SCC(=O)c2ccc(OC)cc2)[nH]c1=O,ROD,MT-4,30 µM
O=c1cc(Cc2c(Cl)cccc2Cl)nc(SCc2cn(Cc3ccccc3)nn2)[nH]1,ROD,-,>273 µM
Cc1cc(C)c(Nc2nc(NC3CCN(Cc4ccccc4)CC3)nc3nc[nH]c23)c(C)c1,ROD,MT-4,>25.95 µM
Cn1c(=O)cc(Oc2nc(Nc3ccc(C#N)cc3)nc(Nc3ccccn3)n2)c2ccccc21,ROD,-,>74.1 µg/mL
COc1ccccc1C(=O)N1CCC(NC(=O)c2cc(O)c(O)c(O)c2)CC1,ROD,MT-4,>147.2 µM
Nc1ccn([C@H]2CC[C@@H](CO)O2)c(=O)n1,ROD,MT-4,1.3 µM
CC(C)CN(C[C@@H](O)[C@H](Cc1ccccc1)NC(=O)O[C@H]1CCOC1)S(=O)(=O)c1ccc(N)cc1,ROD,MT-2,0.37 µM
Cc1cn([C@H]2C[C@H](N=[N+]=[N-])[C@@H](CO)O2)c(=O)[nH]c1=O,ROD,MT-4,0.007 µM
Cc1cn([C@H]2C[C@H](N=[N+]=[N-])[C@@H](CO)O2)c(=O)[nH]c1=O,ROD,MT-4,0.004 µM
C=S(=C)(N)c1ccc(CN2CCC(Nc3nc(Nc4c(C)cc(C)cc4C)c4[nH]cnc4n3)CC2)cc1,ROD,MT-4,>23.89 µM
COc1ccc(CCNc2nc(NC(=S)Nc3ccc(Cl)cc3)nc(Oc3cc(=O)oc4ccccc34)n2)cc1OC,ROD,MT-4,>40.83 µg/mL
Cc1cc(C)c(Nc2nc(NC3CCN(Cc4ccncc4)CC3)nc3nc[nH]c23)c(C)c1,ROD,MT-4,>141 µM
Cc1cn([C@H]2C=C[C@@H](COP(=O)(O)N(CC(=O)O)CC(=O)O)O2)c(=O)[nH]c1=O,ROD,MT-4,0.21 µM
O=S1(=O)NC(Cc2ccccc2)=CC(=NCCc2ccccc2)N1,ROD,MT-4,>192 µM
Cc1ccc(C(=O)N2CCC(NC(=O)c3cc(O)c(O)c(O)c3)CC2)cc1,ROD,MT-4,>29.6 µM
COc1ccc(CCNc2nc(NC(=S)Nc3ccc(F)cc3)nc(Oc3cc(=O)oc4ccccc34)n2)cc1OC,ROD,MT-4,>14.55 µg/mL
c1cc(CN2CCCNCCNCCCNCC2)ccc1CN1CCCNCCNCCCNCC1,ROD,MT-4,0.001 µg/mL
CC(=O)N1CCC(NC(=O)c2cc(O)c(O)c(O)c2)CC1,ROD,MT-4,>42.6 µM
C=C1[C@H](CO)[C@@H](O)C[C@@H]1n1cnc2c(=O)[nH]c(N)nc21,ROD,MT-4,>4.59 µM
COc1ccc(CCNc2nc(NC(=O)Nc3ccc(C)cc3)nc(Oc3cc(=O)oc4ccccc34)n2)cc1OC,ROD,MT-4,>74.98 µg/mL
Cn1c(=O)cc(Oc2nc(Nc3ccc(C#N)cc3)nc(Nc3nc4ccc(Br)cc4s3)n2)c2ccccc21,ROD,-,>14.5 µg/mL
CCc1c(Cc2cccc3ccccc23)nc(NCc2ccccc2)[nH]c1=O,ROD,MT-4,>34.65 µM
Cc1cccc(C)c1OCC(=O)N[C@@H](Cc1ccccc1)[C@@H](O)C[C@H](Cc1ccccc1)NC(=O)[C@H](C(C)C)N1CCCNC1=O,ROD,MT-2,0.018 µM
O=S1(=O)N=C(Nc2ccc(F)c(F)c2F)C=C(Cc2ccccc2)N1,ROD,MT-4,>198 µM
Nc1ccn([C@H]2CC[C@@H](CO)O2)c(=O)n1,ROD,MT-4,0.49 µg/mL
NC(=O)c1ccc(Cn2cc(CSc3nc(Cc4cccc5ccccc45)c(I)c(=O)[nH]3)nn2)cc1,ROD,-,>88.01 µM
O=S1(=O)N=C(Nc2ccc(Br)cc2)C=C(Cc2cccc3ccccc23)N1,ROD,MT-4,>140 µM
N#Cc1ccc(CN2CCC(N=C3C=C(Cc4cccc5ccccc45)NS(=O)(=O)N3)CC2)cc1,ROD,MT-4,>100 µM
CC(C)CN(C[C@@H](O)[C@H](Cc1ccc(F)cc1)NC(=O)O[C@H]1CCO[C@H]2OCC[C@H]21)S(=O)(=O)c1ccc2nc(NC(C)C)sc2c1,ROD,MT-2,0.0026 µM
O=C(CSc1nncnc1-c1ccccc1Cl)Nc1ccccc1[N+](=O)[O-],ROD,MT-4,>63 µM
Cc1cc(C)c(Nc2nc(NC3CCN(Cc4ccccc4F)CC3)nc3nc[nH]c23)c(C)c1,ROD,MT-4,>23.61 µM
COc1ccc(Cn2cc(CSc3nc(Cc4cccc5ccccc45)c(C)c(=O)[nH]3)nn2)cc1,ROD,-,>26.53 µM
N#Cc1ccccc1CN1CCC(N=C2C=C(Cc3ccc(Cl)cc3Cl)NS(=O)(=O)N2)CC1,ROD,MT-4,>121 µM
CN(C)c1ccc(NC2=NS(=O)(=O)NC(Cc3ccccc3)=C2)cc1,ROD,MT-4,>256 µM
CCOc1ccc(NC(=O)Nc2nc(NCCc3ccc(OC)c(OC)c3)nc(Oc3cc(=O)oc4ccccc34)n2)cc1,ROD,MT-4,>30.15 µg/mL
Cc1cc(NC2=NS(=O)(=O)NC(Cc3ccccc3)=C2)ccc1Cl,ROD,MT-4,>179 µM
O=[N+]([O-])c1ccc(-c2nnc(-c3cccnc3)o2)cc1,ROD,MT-4,>73.5 µg/mL
Cc1ccnc2c1NC(=O)c1cccnc1N2C1CC1,ROD,MT-4,>15 µM
COc1cc(NC(C)CCCN)c2ncccc2c1,ROD,MT-4,>100 µM
CCc1c(Cc2cccc3ccccc23)nc(N)[nH]c1=O,ROD,MT-4,>91.82 µM
Cc1ccc(NC(=O)CSc2nncnc2-c2ccccc2Cl)c([N+](=O)[O-])c1,ROD,MT-4,>158 µM
Cn1c(=O)cc(Oc2nc(Nc3ccc(C#N)cc3)nc(Sc3nc4ccccc4s3)n2)c2ccccc21,ROD,-,>72.78 µg/mL

The last 6 rows once more:

smiles,strain or isolate,cells,result
O=[N+]([O-])c1ccc(-c2nnc(-c3cccnc3)o2)cc1,ROD,MT-4,>73.5 µg/mL
Cc1ccnc2c1NC(=O)c1cccnc1N2C1CC1,ROD,MT-4,>15 µM
COc1cc(NC(C)CCCN)c2ncccc2c1,ROD,MT-4,>100 µM
CCc1c(Cc2cccc3ccccc23)nc(N)[nH]c1=O,ROD,MT-4,>91.82 µM
Cc1ccc(NC(=O)CSc2nncnc2-c2ccccc2Cl)c([N+](=O)[O-])c1,ROD,MT-4,>158 µM
Cn1c(=O)cc(Oc2nc(Nc3ccc(C#N)cc3)nc(Sc3nc4ccccc4s3)n2)c2ccccc21,ROD,-,>72.78 µg/mL